Measurements reported in PubChem BioAssay AID624099 (ICCB-Longwood, 2012)
The whole screen tested about 21,000 reagents; below is an unselected part. 497 of all reagents (2.4%) were called active. 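Higher z means weaker E2 silencing; only reporter increases were scored, and knock-downs that hurt cell survival may mask genuine repressor factors.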 A number with no mark means an inactive call.

Aim: 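Human genes that papillomavirus E2 requires to repress the HPV18 LCR promoter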 (primary screen)
Cell system: human C33A cervical carcinoma cells (HPV-negative) stably expressing BPV1 E2 and an HPV18 LCR luciferase reporter
Reagents: siRNA pool against human genes, 40 nM
Timing: 72 h
Detection: 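HPV18 LCR reporter light per well, converted to plate-wise z-scores that exclude control wells, and averaged over triplicate plates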
Scale: mean z-score and z-score: higher = stronger reporter signal, weaker E2 silencing
Hit rule: 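Hit if mean z-score reaches 2 and two or more of three replicate z-scores also reach 2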

With knock-down of RPL35 (GeneID 11224) the results were mean z-score -1.77; z-score, replicate A = -1.55; z-score, replicate B = -1.42; z-score, replicate C = -2.35. With knock-down of SUGP2 (GeneID 10147) the results were mean z-score 1.39; z-score, replicate A = 1.29; z-score, replicate B = 1.57; z-score, replicate C = 1.3. HMBOX1 (GeneID 79618) gave mean z-score 0.73; z-score, replicate A = 0.48; z-score, replicate B = 0.87; z-score, replicate C = 0.83. With knock-down of GJC2 (GeneID 57165), the record shows mean z-score 1.32; z-score, replicate A = 1.35; z-score, replicate B = 1.37; z-score, replicate C = 1.23. For ARHGEF39 (GeneID 84904), the entry reads mean z-score -0.68; z-score, replicate A = -0.88; z-score, replicate B = -0.79; z-score, replicate C = -0.36. With knock-down of RRP15 (GeneID 51018), the record shows mean z-score -0.36; z-score, replicate A = -0.23; z-score, replicate B = -0.24; z-score, replicate C = -0.61.

Silencing of NUDT9 (GeneID 53343) came out at: mean z-score 1.79; z-score, replicate A = 1.56; z-score, replicate B = 1.8; z-score, replicate C = 2.02. OTOGL (GeneID 283310) showed mean z-score -0.9; z-score, replicate A = -0.87; z-score, replicate B = -1.08; z-score, replicate C = -0.76. After knock-down of IKBIP (GeneID 121457), the record shows mean z-score 1.32; z-score, replicate A = 1.47; z-score, replicate B = 1.41; z-score, replicate C = 1.08. DZANK1 (GeneID 55184) gave mean z-score -0.01; z-score, replicate A = 0.04; z-score, replicate B = -0.01; z-score, replicate C = -0.06. GPD1 (GeneID 2819) gave mean z-score -0.11; z-score, replicate A = 0; z-score, replicate B = 0.03; z-score, replicate C = -0.36. For CCL8 (GeneID 6355) the deposit lists mean z-score 1.17; z-score, replicate A = 1.01; z-score, replicate B = 1.59; z-score, replicate C = 0.91.

Knock-down of ZNF276 (GeneID 92822) resulted in: mean z-score 1.01; z-score, replicate A = 1.36; z-score, replicate B = 1.19; z-score, replicate C = 0.48. With knock-down of IMPA1 (GeneID 3612), the screen gave mean z-score 0; z-score, replicate A = -0.02; z-score, replicate B = -0.06; z-score, replicate C = 0.08. Silencing of GRK6 (GeneID 2870) came out at: mean z-score -0.78; z-score, replicate A = -0.84; z-score, replicate B = -0.69; z-score, replicate C = -0.8. With knock-down of LGALS17A (GeneID 400696) the results were mean z-score -0.08; z-score, replicate A = -0.03; z-score, replicate B = -0.52; z-score, replicate C = 0.3. PSMB1 (GeneID 5689) showed mean z-score -0.36; z-score, replicate A = -0.75; z-score, replicate B = -0.24; z-score, replicate C = -0.1. For ZSCAN9 (GeneID 7746), the values are mean z-score 0.23; z-score, replicate A = 0.09; z-score, replicate B = 0.37; z-score, replicate C = 0.25.

Silencing of EQTN (GeneID 54586) came out at: mean z-score -1.47; z-score, replicate A = -1.67; z-score, replicate B = -1.53; z-score, replicate C = -1.22. COG1 (GeneID 9382) scored mean z-score 0.11; z-score, replicate A = -0.04; z-score, replicate B = 0.32; z-score, replicate C = 0.05. Silencing of CD207 (GeneID 50489) resulted in: mean z-score 2.39 (active); z-score, replicate A = 2.75; z-score, replicate B = 2.17; z-score, replicate C = 2.26.

Already shown: entries from further up.
RPL35 (GeneID 11224) → mean z-score = -1.77; z-score, replicate A = -1.55; z-score, replicate B = -1.42; z-score, replicate C = -2.35
SUGP2 (GeneID 10147) → mean z-score = 1.39; z-score, replicate A = 1.29; z-score, replicate B = 1.57; z-score, replicate C = 1.3
HMBOX1 (GeneID 79618) → mean z-score = 0.73; z-score, replicate A = 0.48; z-score, replicate B = 0.87; z-score, replicate C = 0.83
